# Experimental data published in the supplement of paper PMC9931576.
# Human monoclonal antibodies against the spike receptor-binding domain (heavy:light variable regions). IC50 against pseudoviruses bearing the spike of naturally observed variants; lower = stronger; >10 µg/ml means not reached at the top dose. No active / inactive call. The stated detection limit is 0.0005 µg/ml; values near or below 0.001 µg/ml lie at the floor of the assay.
# What was measured:
# Test in all cases: pseudovirus neutralization IC50; higher = weaker neutralization
# [1] = target: SARS-CoV-2 Omicron BA.1 spike pseudovirus
# Protocol: (§1)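 Single-round VSV luciferase pseudovirus mixed with antibody dilutions for 1 h and put on Huh-7 cells for about a day; IC50 from the dose curve.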
# [2] = target: SARS-CoV-2 Omicron BA.2 spike pseudovirus
# Protocol: as §1
# [3] = target: SARS-CoV-2 Omicron BA.2.75 spike pseudovirus
# Protocol: as §1
# [4] = target: SARS-CoV-2 Omicron BA.5 spike pseudovirus
# Protocol: as §1
# [5] = target: SARS-CoV-2 Omicron BQ.1.1 spike pseudovirus
# Protocol: as §1
# [6] = target: SARS-CoV-2 Omicron XBB spike pseudovirus
# Protocol: as §1
# [7] = target: SARS-CoV-2 early D614G spike pseudovirus
# Protocol: as §1
Binder,pseudovirus neutralization IC50 [1] [mg/L],pseudovirus neutralization IC50 [2] [mg/L],pseudovirus neutralization IC50 [3] [mg/L],pseudovirus neutralization IC50 [4] [mg/L],pseudovirus neutralization IC50 [5] [mg/L],pseudovirus neutralization IC50 [6] [mg/L],pseudovirus neutralization IC50 [7] [mg/L]
BD57-0139 (protein) chain 1: QVTLKESGPVLLKPTETLTLTCTVTKFSLSNARMGVSWIRQPPGRALEWLAHISANDEESYSPALKNRLSISKDTSKSQVVLSMTNMDPVDTATYYCAGTFSISWYDYWGQGTLVTVSS chain 2: SYVLTQPPSVSVAPGKTARITCGGNNIGSQSVHWYQQKPGQAPVLVIYYDTDRPSGIPERFSGSKSENTATLTIGRVEAGDEADYYCQVWLSKGDLVIFGGGTKLTVL,0.0984,0.149,0.0852,0.469,> 10,> 10,0.0287
BD57-0140 (protein) chain 1: EVQLVESGGGLVQPGGSLRLSCAASGFTFSNYDMHWVRQVTGKGLEWVALIGTAGDTYYPDTVKGRFTISRENAKNSLYLQMNSLRAGDTAVYYCARVSYDSSGYFYWFDLWGQGTLVTVSS chain 2: DIQMTQSPSSLSASVGDRVTITCRASQRISTYLNWYQQKPGKAPKLLIYVASTLQSGVPSRFSGSGSGTDFTLTISSLQPEDFATYYCQQSYNTPPITFGQGTRLEIK,> 10,> 10,> 10,> 10,> 10,> 10,> 10
BD57-0146 (protein) chain 1: QVQLVQSGPEVKTPGASVRVSCQASGDTFSTSYIHWVRQAPGQGPEWMGIINPSGGSTTYAQRFQGRVTMTGDMSSTTVYMELRGLTSDDTGVYYCARGGFVPNIRWPQDYWGQGTLITVSS chain 2: DIQMTQSPSTLSAFVGDRVTITCRASQSIGRYLAWYQQKPGKAPHLLVYQASTLETGVPSRFSGSGSGTQFTLTISSLQPEDFATYYCQQYDSFSWTFGQGTKVEIK,1.45,2.09,1.86,3.86,5.63,3.93,3.7
BD57-0148 (protein) chain 1: QGQLVQSGAEVKKPGASVKVSCEAPAYTSTGYYMHWLRQAPRQGLEWMGWMHPTTGGTDYAQKFRGRVTMTSDTSISTGYLELSSLTSDDTAVYYCAMTSSNWYAGGVKWGQGTLVTVSS chain 2: DIQMTQSPSSLSAFLGDRITITCQASQGITNYLNWYQQKPGKAPKLLIYDASNLETGVPSRFSGSGSGTYFTLTISSLQPEDIATYYCQQYNNLPWTFGQGTKVEIK,4.44,4.57,4.89,4.23,> 10,> 10,> 10
BD57-0154 (protein) chain 1: EEQLLESGGGLVQPGKSLKLSCAASGFTFTNYAINWVRQAPGKGLEWVSFITGSGNTAYYADSVKGRFTISRDNSKNTLFLQMNSLRAEDTAVYYCARHDSPTHSDVLTGPDAFDIWGQGTMVTVSS chain 2: DIQMTQSPSTLSASVGDRVTITCRASQSISRWLAWYQQRPGKAPKLLIYMASSLEDGVPSRFSGSGSGTEFALTISSLQPEDFATYYCQQYNSFPYTFGQGTKLEIK,6.5,4.15,4.37,3.77,4.07,3.18,0.445
BD57-0156 (protein) chain 1: EVQLVESGGGLVQPGGSLRLSCAASGFTFSNYDMHWVRQVPGKGLEWVSVIGTGGDTYYPDSLKGRFTISRENAKTSLYLQMNSLRAGDTAVYYCVRVNYAGELFWYLDLWGRGTLVTVSS chain 2: DIQMTQSPSSLSASVGDRVTITCRASQSINNYLNWYQQKPGKAPKVLIYSVSKLQSGVPSRFSGSGSGTDYTLTISSLQPEDFATYFCQQSYTSPMYTFGQGTKLEIK,> 10,> 10,> 10,> 10,> 10,> 10,> 10
BD57-0159 (protein) chain 1: EVQLVESGGGLVQPGGSLRVSCSASGFTFSRYSMHWVRQTPGKGLQYVSGISGNGDIRDYADSVKGRFTISRDNSKNTLYLQMSSLSAEDTAVYYCVKDVDTAAVTIFENWGQGTLVTVSS chain 2: DIQMTQSPSSLSASVGDRVTITCRASQRISGYLNWYQQKPGKAPKLLIYGASSLQSGVPSRFSGSGSGTDFTLTISSLQPEDFATYYCQQSYTTPFTFGQGTKLEIK,> 10,> 10,> 10,> 10,> 10,> 10,> 10
BD57-0174 (protein) chain 1: QVTLRESGPALVKPTQTLTLTCSFSGFSLSTSGMSVSWIRQPPGEALEWLARIDWDDDTFYSTSLRTRLTISKDTSKNQVVLIMTNMDPVDTATYYCGVWGVIPLLFYFNYWGQGTLVTVSS chain 2: QSVLTQPPSASETPGQRVTISCSGSSSNIGTETVNWYQQLPGTAPKLLIYNNNQRPSGVPDRFSASKSGTSASLAISGLQSDDESDYYCATWDDTLKGYVFGTGTKVTVL,> 10,0.0366,2.78,0.0364,> 10,> 10,0.0529
BD57-0185 (protein) chain 1: QVQLQESGPGLVKPSETLSLTCSVSGDSVRSHYWSWIRQPPGKGLEWIGCIYFSGRTNYNPSLESRVTISVDTSKNQVSLRLTSVTAADTAVYYCVTSGPNMMTPGGVIADDAFDIWGQGTMNIVSS chain 2: DIQMTQSPSSLSASVGDRVTITCRASQSINNYLNWYQQKPGKAPKLLIYAASSLQSGVPSRLSGSGSGTDFTLSISSLQPEDSATYYCQQSYSTPWTFGQGTKVAIK,0.0651,0.0547,0.0229,0.0786,> 10,2.22,0.0178
BD-494 (protein) chain 1: EVQLVESGGGLIQPGGSLRLSCAASGFTVSRNYMSWVRQAPGKGLEWVSLIYSGGSTFYADSVKGRFTISRDNSKNTLYLQMNTLRSEDTAVYYCARDLVVYGMDVWGQGTTVTVSS chain 2: DIQLTQSPSFLSASVGDRVTITCRASQGISSYLAWYQQKPGKAPKLLIYAASTLQVGVPSRFSGSGSGTEFTLTISSLQPEDFATYFCQQLNSYPFTFGPGTKVDIK,> 10,> 10,> 10,> 10,> 10,> 10,0.343
BD57-0189 (protein) chain 1: QVTLRESGPALVKPTQTLTLTCTFSGFSLNTSGMSVSWIRQPPGKALEWLARIDWDDDKYHITSLRTRLTISKDTSKNQVVLTMTNMDPVDSATYYCARTRIGGYDYYFDYWGLGTLVTVSS chain 2: QSVLTQPPSVSAAPGQKVTISCSGSTSNIGNYYVSWYQHLPGTAPKLLIYDNNKRPSGIPDRFSGSKSGTSATLGITGLQTGDEADYYCGTWDSSLDSGVFGGGTRLTVL,> 10,0.178,> 10,0.0735,> 10,> 10,2.2
BD57-0191 (protein) chain 1: QVTLRESGPALVKPTQTLTLTCTFSGFSLSTSGMSVNWIRQPPGEALEWLARIDWDDDTYYSTSLKTRLTISKDTSKNQVVLTMTNMDPVDTATYYCGVWGVIPVLFYFDYWGQGTLVTVSS chain 2: QSVLTQPPSASETPGQRVTISCSGSSSNIGTNSVNWYQQLPGTAPKLLIYNNNQRPSGVPDRFSGSKSGTSASLAISGLQSEDEADYYCAAWDDSLKGYVFGTGTKVTVL,3.23,0.0202,3.64,0.0218,> 10,4.14,0.0288
BD57-0194 (protein) chain 1: EVQLVESGGGLVQPGRSLTLSCVGSGFTFDDYAMHWIRQAPGKGLEWVSGLSWNGGTIDYVDSVKGRFIISRDPVKNSLYLHMRSLRVEDTGIYYCVKDKKTNYGSGSKRWDTSHYFDDWGQGTLVTVSS chain 2: DIQMTQSPSSVSASVGGRVTITCQASQDISNYLNWYQQKPGKAPKLLISDASNLEKGVPSRFSGRGSGTDFTFTISRLEPEDIATYYCQQYDDPPLTFGGGTKVEIK,0.174,0.12,0.0169,0.143,2.94,0.403,0.0142
